{"source": "patent US20030103987", "key": {"Arf1": {"target": "Arf1 (UniProt P84077)"}, "Cdc42": {"target": "Cdc42 (UniProt P60953)"}, "H-Ras": {"target": "H-Ras (UniProt P01112)"}, "Rac1": {"target": "Rac1 (UniProt P63000)"}, "RhoA": {"target": "RhoA (UniProt P61586)"}}}
{"substance": "Clostridium sordellii lethal toxin (LT)", "values": [{"measurement": "LT catalysed glucosylation (UDP-[14C]Glc incorporation)", "setting": "Arf1", "result": "no incorporation of glucose catalyzed by LT could be found on Arf1"}, {"measurement": "LT catalysed glucosylation (UDP-[14C]Glc incorporation, SDS-PAGE, phosphorimage)", "setting": "Cdc42", "result": "RhoA, Cdc42 and Rab6 were not modified \"in vitro\" by LT"}, {"measurement": "LT catalysed glucosylation (UDP-[14C]Glc incorporation, SDS-PAGE, phosphorimage)", "setting": "H-Ras", "result": "H-Ras, Rap2, Ral and Rac1 were substrates for LT catalysed glucosylation"}, {"measurement": "LT catalysed glucosylation (UDP-[14C]Glc incorporation, SDS-PAGE, phosphorimage)", "setting": "Rab6", "result": "RhoA, Cdc42 and Rab6 were not modified \"in vitro\" by LT"}, {"measurement": "LT catalysed glucosylation (UDP-[14C]Glc incorporation, SDS-PAGE, phosphorimage)", "setting": "Rac1", "result": "H-Ras, Rap2, Ral and Rac1 were substrates for LT catalysed glucosylation"}, {"measurement": "LT catalysed glucosylation (UDP-[14C]Glc incorporation, SDS-PAGE, phosphorimage)", "setting": "Rap2", "result": "H-Ras, Rap2, Ral and Rac1 were substrates for LT catalysed glucosylation"}, {"measurement": "LT catalysed glucosylation (UDP-[14C]Glc incorporation, SDS-PAGE, phosphorimage)", "setting": "RhoA", "result": "RhoA, Cdc42 and Rab6 were not modified \"in vitro\" by LT"}]}
